In this experiment the target is HIV-1 subtype C integrase (Human immunodeficiency virus type 1 group M subtype C, UniProt O12158). Briefly: HIV-1 integrase strand transfer reaction assay. The format is biochemical. The following applies: read-out: Anti-HIV IC50; HIV-1 IN strand transfer; n = 3.

Chains of the proteins cited; added tags and fusions are not shown. Residues count along the entry.
UniProt O12158, 1144-1431 limits assumed: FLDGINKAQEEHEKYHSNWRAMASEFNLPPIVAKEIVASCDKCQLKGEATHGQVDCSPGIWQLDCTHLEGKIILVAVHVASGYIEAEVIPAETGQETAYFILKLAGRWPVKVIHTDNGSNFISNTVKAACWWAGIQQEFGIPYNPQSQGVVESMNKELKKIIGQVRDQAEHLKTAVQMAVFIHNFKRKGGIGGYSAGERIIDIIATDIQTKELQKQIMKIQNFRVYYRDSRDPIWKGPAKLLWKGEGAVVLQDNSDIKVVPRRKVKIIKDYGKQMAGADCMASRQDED

By IC50 is commonly meant the concentration at which inhibition is half-maximal. For L-chicoric acid, the 50% inhibitory concentration (IC50) was determined as 8.099 ± 0.009 nM.

The values above are taken from publication PMC11303703 (Scientific Reports, 2024).
